# Measured values reported in publication PMC7265302 (Nature Communications, 2020).
# B1: UBE2N, free form (enzyme)
# chain: MAGLPRRIIKETQRLLAEPVPGIKAEPDESNARYFHVVIAGPQDSPFEGGTFKLELFLPEEYPMAAPKVRFMTKIYHPNVDKLGRICLDILKDKWSPALQIRTVLLSIQALLSAPNPDDPLANDVAEQWKTNEAQAIETARAWTRLYAMNNI
# notes: also called free UBE2N; free-form UBE2N; not shown: His-sumo, N-terminal, cleaved
# Target: MavC, wild type (Legionella pneumophila, UniProt Q5ZTL4 1-482)
# Experiment: SEC
# Settings: both partners purified
binder,measurement,value
B1,binding result,binds
